The subject of the test is M. tuberculosis H37Rv growth inhibition. Description: M. tuberculosis H37Rv growth inhibition, dose response, strain H37Rv (AID 489010). The settings on record: measured here: H37Rv growth IC50.

These results are taken from PubChem BioAssay AID489010 (Southern Research Specialized Biocontainment Screening …, 2010).

What is called IC50 is the concentration needed to halve the response being measured. The compound `Cn1ncnc2c(=O)n(C)c(=O)nc1-2` came in with an IC50 of 1.35 µM.
